Compound potency records, mixed from different reports. Data source: NIAID ChemDB in PubChem.

Common to all: tests in culture; agent: Herpes simplex virus 2; read-out: inhibition

Percent inhibition refers to the dose given; in toxicity tests it is the harm to the cells. Conditions beyond the fields shown may differ between rows.

compound	strain or isolate	read by	tested at	cell line	value
Nc1nc(=O)n([C@@H]2O[C@H](CO)[C@@H](O)[C@@H]2F)cc1I	G	virus yield	0.05 µM	VERO	59%
CCCCCCCC/C=C\CCCCCCCC(=O)OCC(CO[C@@H]1O[C@H](CO)[C@@H](O)[C@H](O)[C@H]1O)OC(=O)CCCCCCC/C=C\CCCCCCCC	186	plaque count	50 µg/mL	VERO	25%
CC12CC[C@H](OS(=O)(=O)O)CC1=CCC1C2CCC2(C)C(C(=O)COS(=O)(=O)O)CCC12	G	plaque count	40 µg/mL	VERO	18.2%
CN1C(=O)NC(=O)N([C@H]2C[C@H](O)[C@@H](CO)O2)C1(C)C	35D	plaque count	25 µM	BHK-21	80%
Nc1ccn([C@H]2O[C@@H](CO)[C@H](O)[C@H]2F)c(=O)n1	G	virus yield	10 µM	VERO	97%
CC/C=C/C/C=C/C/C=C/CCCCCCCC(=O)OCC(CO[C@@H]1O[C@H](CO)[C@@H](O)[C@H](O)[C@H]1O)OC(=O)CCCCCCC/C=C/C/C=C/C/C=C/CC	186	plaque count	50 µg/mL	VERO	97%
CC12CC[C@H](OS(=O)(=O)O)CC1=CCC1C2CCC2(C)C(C(=O)CO)CCC12	G	plaque count	40 µg/mL	VERO	0%
O=c1[nH]c(=O)n([C@@H]2O[C@H](CO)[C@@H](O)[C@@H]2F)cc1I	K979	cytopathic effect	0.1 µg/mL	HEP-2	≥25%
CC/C=C/C/C=C/C/C=C/CCCCCCCC(=O)OCC(CO[C@@H]1O[C@H](CO)[C@@H](O)[C@H](O)[C@H]1O)OC(=O)CCCCCCC/C=C\C/C=C\CCCCC	186	plaque count	50 µg/mL	VERO	70%
Nc1nc2c(ncn2COC(CO)CO)c(=O)[nH]1	G	cytopathic effect	0.1 µg/mL	PRK	≥25%
CCCCCCCCCCCC(=O)OCC(CO[C@@H]1O[C@H](CO)[C@@H](O)[C@H](O)[C@H]1O)OC(=O)CCCCCCCCCCC	186	plaque count	50 µg/mL	VERO	50%
CC(=O)O[C@H]1CC2=CCC3C(CCC4(C)C(C(CCC=C(C)C)COS(=O)(=O)O)CCC34)C2(C)C[C@@H]1OS(=O)(=O)O	G	plaque count	80 µg/mL	VERO	100%
Cc1cn([C@@H]2O[C@H](CO)[C@@H](O)[C@@H]2F)c(=O)[nH]c1=O	G	virus yield	2.5 µM	VERO	90%
CC(C)CCCC(COS(=O)(=O)O)C1CCC2C3CC=C4C[C@H](O)[C@@H](OS(=O)(=O)O)CC4(C)C3CCC12C	G	plaque count	80 µg/mL	VERO	100%
O=c1ccn([C@@H]2O[C@H](CO)[C@@H](O)[C@@H]2F)c(=O)[nH]1	G	virus yield	5 µM	VERO	98.9%
Nc1nc(=O)n([C@@H]2O[C@H](CO)[C@@H](O)[C@@H]2F)cc1I	K979	cytopathic effect	0.03 µg/mL	HEP-2	≥25%
CCCCCCCCCCCCCCCCCCCCCC(=O)OCC(CO[C@@H]1O[C@H](CO)[C@H](O)[C@H](O)[C@H]1O)OC(=O)CCCCCCCCCCCCC	186	plaque count	50 µg/mL	VERO	25%

The first 2 rows once more:

compound,strain or isolate,read by,tested at,cell line,value
Nc1nc(=O)n([C@@H]2O[C@H](CO)[C@@H](O)[C@@H]2F)cc1I,G,virus yield,0.05 µM,VERO,59%
CCCCCCCC/C=C\CCCCCCCC(=O)OCC(CO[C@@H]1O[C@H](CO)[C@@H](O)[C@H](O)[C@H]1O)OC(=O)CCCCCCC/C=C\CCCCCCCC,186,plaque count,50 µg/mL,VERO,25%